Assays:
[1] = biological target: Francisella tularensis MEP cytidylyltransferase T141D mutant (Francisella tularensis subsp. holarctica LVS)
[2] = biological target: Francisella tularensis MEP cytidylyltransferase T141E mutant (Francisella tularensis subsp. holarctica LVS)

Francisella tularensis MEP cytidylyltransferase T141D mutant
stoichiometry N [1]: 2

Francisella tularensis MEP cytidylyltransferase T141E mutant
stoichiometry N [2]: 2

Source: PMC3111433, “Francisella tularensis 2-C-Methyl-D-Erythritol 4-Phosphate Cytidylyltransferase: Kinetic Characterization and Phosphoregulation” (2011)
